Human monoclonal antibodies against the spike receptor-binding domain (heavy:light variable regions). IC50 against pseudoviruses bearing the spike of naturally observed variants; lower = stronger; >10 µg/ml means not reached at the top dose. No active / inactive call. The stated detection limit is 0.0005 µg/ml; values near or below 0.001 µg/ml lie at the floor of the assay.
B1: BD56-1491 (protein)
chain 1: QLQLQESGPGLVKPSETLSLTCTVSGGSISSSSYYWGWIRQPPGKGLEWIGSIYYSGSTYYNPSLKSRVTISVDTSKNQFSLKLNSVTAADTAVYYCARLWILGNWFDPWGQGTLVTVSS
chain 2: NFMLTQPHSVSESPGKTVTISCTGSSGSIAINYVQWYQQRPGSAPTTVIYEDNQRPSGVPDRFSGSIDSSSNSASLTISGLKTEDEADYYCQSYHSSNWVFGGGTKLTVL
B2: BD56-1495 (protein)
chain 1: EVQLVESGGGLVKPGGSLRLSCAASGFTFSSYSMNWVRQAPGKGLEWVSSISSSSSYIYYADSVKGRFTISRDNAKNSLYLQMNSLRAEDTAVYYCARSGIAHNWFDPWGQGTLVTVSS
chain 2: QPVLTQPPSASASLGASVTLTCTLSSGYSNYKVDWYQQRPGKGPRFVMRVGTGGIVGSKGDGIPDRFSVLGSGLNRYLTIKNIQEEDESDYHCGADHGSGSNFLWVFGGGTKLTVL
B3: BD56-1496 (protein)
chain 1: QVQLQQSGPGLVKPSQTLSLTCAISGDSVSSNSAAWNWIRQSPSRGLEWLGRIYYRSKWYNDYAVSVKTRITINPDTSKNQFSLQLNSVTPEDTAVYYCARGGVGLDVDAFDIWGQGTMVTVSS
chain 2: QSVLTQPPSVSGAPGQRVTISCTGSSSNIGAGYDVHWYQQLPGTAPKLLIYGNSNRPSGVPDRFSGSKSGTSASLAITGLQAEDEADYYCQSYDSSLSGWVFGGGTKLTVL
B4: BD57-0116 (protein)
chain 1: QVQLQESGPGLVKPSQTLSLTCTVSGGSISSADHYWSWIRQPPGKGLEWIGYIYYSGSTYYNPSLKSRVTILVDTSKNQFSLKLSSVTAADTAVYYCAQTGIEVTIIDYWGQGTLVTVSS
chain 2: QSALTQPASVSGSPGQSITISCTGTSSDVGGYNYVSWYRQHPGKAPKLMIYDVSNRPSGVSNRFSGSKSGNTASLTISGLQAEDEADYYCSSFTSSSTVLVFGGGTKLTVL
B5: BD57-0122 (protein)
chain 1: EVQLVESGGGLVQPGGSLRLSCVGLGSGFTFSTYDMHWVRRATGKGLEWVSGVGSIGDIHYGDSVKGRFTISRENSKNSLDLQMNSLTAGDTAVYYCVTRGASVSFEHWGQGTLVTVSS
chain 2: QPVLTQPPSASAFLGASVTLTCTLSNGYSNYIVDWYQQRPGKGPRFVMRVSTGGIMGSRGDDIPDRFSVLGSGLNRFLTINNVQEEDEGDYHCGADHGDGSTFVWVFGGGTKVTVL

Biological target: SARS-CoV-2 Omicron BA.1 spike pseudovirus
Experiment: pseudovirus neutralization IC50; higher = weaker neutralization
Protocol: (§1)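 Single-round VSV luciferase pseudovirus mixed with antibody dilutions for 1 h and put on Huh-7 cells for about a day; IC50 from the dose curve.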

| Binder | pseudovirus neutralization IC50 [mg/L] |
| --- | --- |
| B1 | > 10 |
| B2 | > 10 |
| B3 | > 10 |
| B4 | > 10 |
| B5 | > 10 |

Biological target: SARS-CoV-2 Omicron BA.2 spike pseudovirus
Experiment: as above
Protocol: as §1

| Binder | pseudovirus neutralization IC50 [mg/L] |
| --- | --- |
| B1 | > 10 |
| B2 | > 10 |
| B3 | > 10 |
| B4 | 0.0191 |
| B5 | > 10 |

Biological target: SARS-CoV-2 Omicron BA.2.75 spike pseudovirus
Experiment: as above
Protocol: as §1

| Binder | pseudovirus neutralization IC50 [mg/L] |
| --- | --- |
| B1 | > 10 |
| B2 | > 10 |
| B3 | > 10 |
| B4 | 0.018 |
| B5 | > 10 |

Biological target: SARS-CoV-2 Omicron BA.2.75.2 spike pseudovirus
Experiment: as above
Protocol: as §1

| Binder | pseudovirus neutralization IC50 [mg/L] |
| --- | --- |
| B1 | > 10 |
| B2 | > 10 |
| B3 | > 10 |
| B4 | 0.0393 |
| B5 | > 10 |

Biological target: SARS-CoV-2 Omicron BA.5 spike pseudovirus
Experiment: as above
Protocol: as §1

| Binder | pseudovirus neutralization IC50 [mg/L] |
| --- | --- |
| B1 | > 10 |
| B2 | > 10 |
| B3 | > 10 |
| B4 | 0.01 |
| B5 | 0.0539 |

Biological target: SARS-CoV-2 Omicron BM.1.1.1 spike pseudovirus
Experiment: as above
Protocol: as §1

| Binder | pseudovirus neutralization IC50 [mg/L] |
| --- | --- |
| B1 | > 10 |
| B2 | > 10 |
| B3 | > 10 |
| B4 | 0.0201 |
| B5 | > 10 |

Biological target: SARS-CoV-2 Omicron BQ.1.1 spike pseudovirus
Experiment: as above
Protocol: as §1

| Binder | pseudovirus neutralization IC50 [mg/L] |
| --- | --- |
| B1 | > 10 |
| B2 | > 10 |
| B3 | > 10 |
| B4 | 0.0254 |
| B5 | > 10 |

Biological target: SARS-CoV-2 Omicron BR.2 spike pseudovirus
Experiment: as above
Protocol: as §1

| Binder | pseudovirus neutralization IC50 [mg/L] |
| --- | --- |
| B1 | > 10 |
| B2 | > 10 |
| B3 | > 10 |
| B4 | 0.0217 |
| B5 | > 10 |

Biological target: SARS-CoV-2 Omicron CA.1 spike pseudovirus
Experiment: as above
Protocol: as §1

| Binder | pseudovirus neutralization IC50 [mg/L] |
| --- | --- |
| B1 | > 10 |
| B2 | > 10 |
| B3 | > 10 |
| B4 | 0.0296 |
| B5 | > 10 |

Biological target: SARS-CoV-2 Omicron XBB spike pseudovirus
Experiment: as above
Protocol: as §1

| Binder | pseudovirus neutralization IC50 [mg/L] |
| --- | --- |
| B1 | > 10 |
| B2 | > 10 |
| B3 | > 10 |
| B4 | 0.0254 |
| B5 | > 10 |

Biological target: SARS-CoV-2 early D614G spike pseudovirus
Experiment: as above
Protocol: as §1

| Binder | pseudovirus neutralization IC50 [mg/L] |
| --- | --- |
| B1 | > 10 |
| B2 | > 10 |
| B3 | > 10 |
| B4 | > 10 |
| B5 | > 10 |

— the supplement of paper PMC9931576
